# Human monoclonal antibodies against the spike receptor-binding domain (heavy:light variable regions). IC50 against pseudoviruses bearing the spike of naturally observed variants; lower = stronger; >10 µg/ml means not reached at the top dose. No active / inactive call. The stated detection limit is 0.0005 µg/ml; values near or below 0.001 µg/ml lie at the floor of the assay.
# B1: BD58-0422 (protein)
# chain 1: EVQLVESGGGLVQPGGSLRLSCAASGFTFSIYSMNWVRQAPGKGLEWVSYISRSSSTIYYADSVKGRFTISRDNAKNSLYLQMNSLRDEDTAVYYCAREGVGDIVLIPAAMEFDYWGQGTLVTVSS
# chain 2: QSVLTQPPSVSGAPGQRVTISCTGSSSNIGAGYDVHWYQQLPGTAPKLLIYGNNNRPSGVPDRFSGSKSGTSASLAITGLQGEDEADYYCQSYDTGLSGVVFGGGTKLTVL
# B2: BD58-0423 (protein)
# chain 1: QLPSQESGPGLVKPSETLSLTCTVSGASISSSTYYWGWIRQPPGKGLEWIGSIYYSGSTYYNPSLKSRVTISVDTSKKQFSLKLSSVTAADTAVYYCAMTYDSSGYPSNDAFDIWGQGTMVTVSS
# chain 2: SYVLTQPPSVSVAPGKTARITCGGNNIGSKSVHWYQQKPGQAPVLVIYYDSDRPSGIPERFSGSNSGNTATLTISRVEAGDEADYYCQVWDSTSDHVLFGGGTKLTVL
# B3: BD58-0437 (protein)
# chain 1: QVQLVVSGGGLVKPGGSLRVSCAASGFTFSDYYMSWIRQAPGKGLEWVSYISSSGSTIYYADSVKGRFTISRDNAKNSLYLQMNSLRAEDTAVYYCARGLNGDLDYWGQGTLVTVSS
# chain 2: DIQMTQSPSTLSASVGDRVTITCRASQSISSWLAWYQQKPGKAPNLLIYMASSLEGGVPSRFSGSGSGTEFTLTISSLQPDDFATYYCQQYNSYSAWTFGQGTKVEIK
# B4: BD58-0444 (protein)
# chain 1: QVQLVQSGAEVKKPGASVKVSCKTSGYTFTGYYMHWVRQAPGQGLQWMGWINPNSGGTNYAQKFQGRVTMTRDTSISIAYMELSRLRSDDTAVYYCARDSGYCSSISCSPTDYWGQGTLVTVSS
# chain 2: DIQMTQSPSSLSASVGDRVTITCQASQDISNHLNWYQQKPGKAPKLLIYDASNLETGVPSRFSGSGSGTDFTFTISSLQPEDIATYYCQLYDNLLLTWTFGQGTKVEIK
# B5: BD56-277 (protein)
# chain 1: QVQLVQSGAEVKKPGSSVKVSCKASGGTFSSYAISWVRQAPGQGLEWMGRIIPILGIANYAQKFQGRVIITADKSTSTAYMELSSLRSEDTAVYYCLLREMATDYWGQGTLVTVSS
# chain 2: SYELTQPPSVSVSPGQTASITCSGDKLGDKYAHWYQQKPGQSPVLVIYEDNKRPSGIPERFSGSNSGNTATLTISGTQAMDEADYYCQAWDSTTEVFGTGTKVTVL
# B6: BD58-0447 (protein)
# chain 1: QVQLVESGGGVVQPGRSLRLSCAASGFTLSSYAMHWVRQAPGKGLEWVAVISLDGSNKYYADSVKGRFTISRDNSKDTLYLQMNSLRTEDTAVYYCASTLDYGDLPYDYWGQGTLVTVSS
# chain 2: EIVLTQSPDFQSVTPKEKVTITCRASQSIGSSLHWYQQKPDQSPKLLIKYASQSISGVPSRFSGSGSGTDFTLTINSLEAEDAAAYYCHQSSSLPLTFGPGTKVDIK
# B7: BD58-0451 (protein)
# chain 1: QVQLQQWGAGLLKPSETLSLTCAVYGGSFSNYFWSWIRQPPGKGLEWIGEINHSGSTNYNPSLKSRVTISVDTSKNQFSLKLSSVTAADTAVYYCARVNDFGDYEYWYFDLWGRGTLVTVSS
# chain 2: QSALTQPASVSGSPGQSITISCTGTSSDVGVYNYVSWYQQHPGKAPKLMIYDVSNRPSGVPDRFSGSKSGNTASLTISGLQAEDEADYYCSSYTSSSTLYVFATGTKVTVL
# B8: BD58-0455 (protein)
# chain 1: EVQLVESGGGLVQPGGSLRLSCAASGFTFSSYWMHWVRQAPGKGLVWVSRINSDGSRTSYADSVKGRFTISRDNAKNTLYLQMNSLRAEDTAVYYCARDLIMTTETIEGRDYWGQGTLVTVSS
# chain 2: NFMLTQPHSVSESPGKTVTISCTGSSGSIANNYVQWYQQRPGSAPTTVIYEDNQRPSGVPDRFSGSIDSSSNSASLTISGLKTEDEADYYCQSYDNSDWVFGGGTKLTVL
# B9: BD58-0463 (protein)
# chain 1: QVQLVQSGAEVKKPGSSVKVSCKVSGGTFSSYAISWVRQAPGQGLEWMGGIIPIFDTTHYAQKFQGRLTITADESTSAVYMELSSLRSEDTAVYYCARKGRGVRGITAMDVWGKGTTVTVSS
# chain 2: DIQMTQSPSSLSASVGDRVTITCQASQDISNYLNWYQQKPGKAPKLLIYDASNLETGVPSRFSGGGSGTDFTFTISSLQPEDIATYYCQQYDNLPTFGGGTKVEIK
# B10: BD58-0473 (protein)
# chain 1: QVQLVQSGAEVKKPGASVKVSCKVSGYTLTELSMHWVRQAPGKGLEWMGGFDPELGETIYAQKFQGRVTMTEDTSTDTAYMQLSSLRSEDTAVYYCAIDFHYYDSTGESDYWGQGTLVTVSS
# chain 2: QSVLTQPPSVSAAPGQKVTISCSGSSSSIRNNYVSWYQQLPGTAPKLLIYDNNKRPSGIPDRFSGSKSGPSATLGITGLQTGDEADYYCGTWDSSLSAWVFGGGTKLTVL
# Biological target: SARS-CoV-2 Omicron BA.1 spike pseudovirus
# Experiment: pseudovirus neutralization IC50; higher = weaker neutralization
# Experimental: (§1)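 Single-round VSV luciferase pseudovirus mixed with antibody dilutions for 1 h and put on Huh-7 cells for about a day; IC50 from the dose curve.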
row,Binder,pseudovirus neutralization IC50 [µg/mL]
1,B1,0.0104
2,B2,> 10
3,B3,0.00441
4,B4,> 10
5,B5,0.118
6,B6,0.0664
7,B7,> 10
8,B8,> 10
9,B9,0.000412
10,B10,> 10

# Biological target: SARS-CoV-2 Omicron BA.2 spike pseudovirus
# Experiment: as above
# Experimental: as §1
row,Binder,pseudovirus neutralization IC50 [µg/mL]
1,B1,0.0156
2,B2,0.137
3,B3,0.00946
4,B4,0.00892
5,B5,0.451
6,B6,0.0369
7,B7,0.00681
8,B8,> 10
9,B9,0.000207
10,B10,0.000386

# Biological target: SARS-CoV-2 Omicron BA.2.75 spike pseudovirus
# Experiment: as above
# Experimental: as §1
row,Binder,pseudovirus neutralization IC50 [µg/mL]
1,B1,> 10
2,B2,> 10
3,B3,> 10
4,B4,> 10
5,B5,0.351
6,B6,> 10
7,B7,> 10
8,B8,> 10
9,B9,0.000941
10,B10,0.263

# Biological target: SARS-CoV-2 Omicron BA.2.75.2 spike pseudovirus
# Experiment: as above
# Experimental: as §1
row,Binder,pseudovirus neutralization IC50 [µg/mL]
1,B1,> 10
2,B2,> 10
3,B3,> 10
4,B4,> 10
5,B5,> 10
6,B6,> 10
7,B7,> 10
8,B8,> 10
9,B9,> 10
10,B10,0.483

# Biological target: SARS-CoV-2 Omicron BA.5 spike pseudovirus
# Experiment: as above
# Experimental: as §1
row,Binder,pseudovirus neutralization IC50 [µg/mL]
1,B1,> 10
2,B2,> 10
3,B3,> 10
4,B4,> 10
5,B5,> 10
6,B6,> 10
7,B7,> 10
8,B8,> 10
9,B9,0.0167
10,B10,0.00733

# Biological target: SARS-CoV-2 Omicron BM.1.1.1 spike pseudovirus
# Experiment: as above
# Experimental: as §1
row,Binder,pseudovirus neutralization IC50 [µg/mL]
1,B1,> 10
2,B2,> 10
3,B3,> 10
4,B4,> 10
5,B5,> 10
6,B6,> 10
7,B7,> 10
8,B8,> 10
9,B9,> 10
10,B10,> 10

# Biological target: SARS-CoV-2 Omicron BQ.1.1 spike pseudovirus
# Experiment: as above
# Experimental: as §1
row,Binder,pseudovirus neutralization IC50 [µg/mL]
1,B1,> 10
2,B2,> 10
3,B3,> 10
4,B4,> 10
5,B5,> 10
6,B6,> 10
7,B7,> 10
8,B8,> 10
9,B9,0.13
10,B10,0.288

# Biological target: SARS-CoV-2 Omicron BR.2 spike pseudovirus
# Experiment: as above
# Experimental: as §1
row,Binder,pseudovirus neutralization IC50 [µg/mL]
1,B1,> 10
2,B2,> 10
3,B3,> 10
4,B4,> 10
5,B5,> 10
6,B6,> 10
7,B7,> 10
8,B8,> 10
9,B9,0.0104
10,B10,0.0653

# Biological target: SARS-CoV-2 Omicron CA.1 spike pseudovirus
# Experiment: as above
# Experimental: as §1
row,Binder,pseudovirus neutralization IC50 [µg/mL]
1,B1,> 10
2,B2,> 10
3,B3,> 10
4,B4,> 10
5,B5,> 10
6,B6,> 10
7,B7,> 10
8,B8,> 10
9,B9,> 10
10,B10,0.304

# Biological target: SARS-CoV-2 Omicron XBB spike pseudovirus
# Experiment: as above
# Experimental: as §1
row,Binder,pseudovirus neutralization IC50 [µg/mL]
1,B1,> 10
2,B2,> 10
3,B3,> 10
4,B4,> 10
5,B5,> 10
6,B6,> 10
7,B7,> 10
8,B8,> 10
9,B9,> 10
10,B10,> 10

# Biological target: SARS-CoV-2 early D614G spike pseudovirus
# Experiment: as above
# Experimental: as §1
row,Binder,pseudovirus neutralization IC50 [µg/mL]
1,B1,> 10
2,B2,> 10
3,B3,> 10
4,B4,> 10
5,B5,> 10
6,B6,> 10
7,B7,> 10
8,B8,> 10
9,B9,> 10
10,B10,> 10
